Compound potency records, mixed from different reports. Data source: NIAID ChemDB in PubChem.

MIC50, MIC90 and the like: level of inhibition, or share of isolates inhibited.

structure	kind	organism	strain	mutations	cell line	target	method	measure	dose	value
Cc1cn([C@@H]2O[C@H](CO[Si](C)(C)C(C)(C)C)[C@@]3(OS(=O)(=O)C=C3N)[C@H]2O[Si](C)(C)C(C)(C)C)c(=O)[nH]c1=O	target	HIV		RT-N137Q		Reverse transcriptase	nucleotide incorporation / radiometric	fold resistance		0.41
CCOC(=O)Nc1cc(NC/C(=N/O)c2ccc(Cl)cc2Cl)c([N+](=O)[O-])c(N)n1	culture	Encephalitozoon intestinalis			RK-13			inhibition	0.1 µg/mL	7.1%
CCO/N=C/c1ccc(OCCC2CCN(c3ccc(C)nn3)CC2)cc1	culture	Rhinovirus	Norman (ICAM-1 receptor group 5)		KB		neutral red	EC50		0.005 µM
COc1cc(C[C@H](C)[C@H](C)Cc2ccc(O)c(O)c2)ccc1O	culture	Candida albicans	CCC 127-2000				broth dilution	MIC100		62.5 µg/mL
N#Cc1ccc(C(=O)Nc2nnc(NCCN3CCOCC3)s2)cc1	target	Human cytomegalovirus				Polymerase		IC50		>25 µM
Nc1nc2c(ncn2[C@H]2CC[C@@H](COP(=O)(O)OP(=O)(O)OP(=O)(O)O)O2)c(=O)[nH]1	target	HIV		RT-P95A		Reverse transcriptase	nucleotide incorporation / radiometric	IC50		1.4 µM
CC(C)c1cc(C(C)C)c(C(=O)Nc2nnc(NCc3cccnc3)s2)c(C(C)C)c1	target	Human cytomegalovirus				Polymerase		IC50		>25 µM
COc1cc(NCc2cnc3nc(N)nc(N)c3c2C)cc(OC)c1	culture	Encephalitozoon intestinalis			RK-13			inhibition	0.1 µg/mL	57.2%
O=C(Nc1nnc(NC2CCCCCC2)s1)c1c(Cl)cccc1Cl	target	Human cytomegalovirus				Polymerase		IC50		>25 µM
CO[C@@H]1[C@H](OC(=O)NC(=O)CCl)CC[C@]2(CO2)[C@H]1[C@@]1(C)O[C@@H]1CC=C(C)C	culture	Vittaforma corneae			RK-13			inhibition	0.0005 µg/mL	54.4%
Cc1cn([C@H]2C=C[C@@H](COP(=O)(O)OP(=O)(O)OP(=O)(O)O)O2)c(=O)[nH]c1=O	target	HIV		RT-N137K		Reverse transcriptase	nucleotide incorporation / radiometric	IC50		3.3 µM
CC(C)=CCN1c2cc(Cl)cc3[nH]c(=S)n(c23)C[C@@H]1C	culture	HIV-1		RT-M41L T215Y A98G	MT-4			EC95		0.8 µM
NS(=O)(=O)c1ccc(CCNc2nnc(NC(=O)c3ccc(Br)cc3)s2)cc1	target	Human cytomegalovirus				Polymerase		IC50		<25 µM
C#CC[C@@H](C(=O)N[C@H](/C=C/C(=O)OCC)C[C@@H]1CCNC1=O)n1cccc(NC(=O)c2cc(C)on2)c1=O	culture	Rhinovirus	Serotype 13		H1-HELA		cytopathic effect / XTT	inhibition	0.195 µM	90%
CCOC(=O)Nc1nc(NC(=O)OCC)c2c(c1N)NC(C)C(c1ccccc1)=N2	culture	Encephalitozoon intestinalis			RK-13			inhibition	1 µg/mL	13.2%
O=C(Nc1nnc(NCCc2ccccc2)s1)c1ccc(I)cc1	target	Human cytomegalovirus				Polymerase		IC50		>25 µM
COC(=O)Nc1cc(N)c2c(c1)NC(=O)C(c1ccccc1)N2	culture	Encephalitozoon intestinalis			RK-13			inhibition	0.01 µg/mL	4.2%
CCOc1ccc2ccccc2c1C(=O)Nc1nnc(NCCNc2ccccc2)s1	target	Human cytomegalovirus				Polymerase		IC50		<25 µM

A second listing of 2 rows from above:

structure | kind | organism | strain | mutations | cell line | target | method | measure | dose | value
CCOC(=O)Nc1nc(NC(=O)OCC)c2c(c1N)NC(C)C(c1ccccc1)=N2 | culture | Encephalitozoon intestinalis |  |  | RK-13 |  |  | inhibition | 1 µg/mL | 13.2%
COC(=O)Nc1cc(N)c2c(c1)NC(=O)C(c1ccccc1)N2 | culture | Encephalitozoon intestinalis |  |  | RK-13 |  |  | inhibition | 0.01 µg/mL | 4.2%

ICn: concentration for n% inhibition. Fold resistance: result on the changed form divided by that on wild type. Inhibition is in % at the dose shown (toxicity tests: loss of growth or viability). Conditions beyond the fields shown may differ between rows. An empty or dashed field is not shown. ECn: concentration that inhibits the pathogen or its effect by n%.